Earlier results in patent US5872104A, “Combinations and methods for reducing antimicrobial resistance” (Oridigm Corporation, priority 1994, dated 1999).

Test system: human retrovirus
Conditions: in vitro cytotoxicity vs activity; cited from earlier work

Row | SMILES | activity index
1 | Nc1ncnc2c1ncn2C[C@H](O)CO [(S)-DHPA, 9(S)-(2,3-dihydroxypropyl)adenine] | > 3
2 | Nc1ncnc2c1ncn2[C@@H]1C=C(CO)[C@@H](O)[C@H]1O [NPA, neplanocin A] | > 20
3 | Nc1nccc2c1ncn2[C@@H]1C[C@H](CO)[C@@H](O)[C@H]1O [carbocyclic 3-deazaadenosine, carbocyclic-3-deazaadenosine] | 70
